Anti-infective test results gathered from many reports (values: NIAID ChemDB through PubChem).

Common to all: whole-cell or culture tests; organism: HIV-1; method: luminescence; read-out: EC50

Blank or dashed fields: not listed here. ECn: concentration that inhibits the pathogen or its effect by n%. Rows are shuffled and stem from different studies.

smiles,strain or isolate,conditions,cells,changes,value
COc1ccc(NC(=O)/C=C/c2ccc3cccc(OC)c3n2)cc1,UG070,-,TZM-bl,-,10.8 µM
Cc1ncc(-c2ccc(NCCOc3ccc(F)cc3)cn2)c(N2CCC(C)(C)CC2)c1[C@H](OC(C)(C)C)C(=O)O,NL4-3,-,MT-2,-,0.0016 µM
Clc1ccc2nc(/C=C/c3ccc(-c4ccccc4)cc3)cc(Cl)c2c1,UG070,-,TZM-bl,-,87.44 µM
Fc1cccc(N=Cc2cc3ccccc3nc2Nc2cccc(F)c2)c1,UG070,-,TZM-bl,-,>130 µM
CCC1(C)CCN(c2c(-c3ccc(OCCOC(C)(C)C)cn3)cnc(C)c2[C@H](OC(C)(C)C)C(=O)O)CC1,NL4-3,-,MT-2,-,2.1 µM
Cc1ncc(-c2ccc(OCCCC3CCCCC3)cn2)c(N2CCC(C)(C)CC2)c1[C@H](OC(C)(C)C)C(=O)O,NL4-3,-,MT-2,-,0.0032 µM
C[C@@H]1CO[C@@]23CCCC[C@@H]2n2cc(C(=O)NCc4ccc(F)c(Cl)c4F)c(=O)c(O)c2C(=O)N13,IIIB,-,MT-4,-,0.00207 µM
Cc1ccc(C[C@@H](C)[C@@H](C)Cc2ccc(C)c(C)c2)cc1C,-,-,-,-,26 µM
Cc1ncc(-c2ccc(OCC(C)C)cn2)c(N2CCC3(CCCC3)C2)c1[C@H](OC(C)(C)C)C(=O)O,NL4-3,-,MT-2,-,11.9 µM
Cc1cc(OCCOc2ccc(-c3cnc(C)c([C@H](OC(C)(C)C)C(=O)O)c3N3CCC(C)(C)CC3)nc2)ccc1F,NL4-3,-,MT-2,-,0.0009 µM
Cc1ncc(-c2ccc(OCC3CCOCC3)cn2)c(N2CCC3CCCCC3C2)c1[C@H](OC(C)(C)C)C(=O)O,NL4-3,-,MT-2,-,5.6 µM
Fc1ccc(N=Cc2cc3ccccc3nc2Nc2ccc(F)cc2)cc1,UG070,-,TZM-bl,-,115 µM
CN(CC(=O)O)Cc1ccc2c(c1)C[C@H](CN=C(N)N)[C@H]2NC(=O)C(=O)Nc1ccc(Cl)c(F)c1,JR-FL,-,Cf2Th-CD4/CCR5,-,17.1 µM
O=C(NCc1ccc(F)c(Cl)c1F)c1cn2c(c(O)c1=O)C(=O)N1CCC[C@]13COCC[C@H]23,IIIB,-,MT-4,-,0.004128 µM
COCCOCCOc1ccc(-c2cnc(C)c([C@H](OC(C)(C)C)C(=O)O)c2N2CCC(C)(C)CC2)nc1,NL4-3,-,MT-2,-,0.0042 µM
COc1cccc2ccc(-c3nnc(-c4ccc5c(c4)OCO5)o3)nc12,UG070,-,TZM-bl,-,135 µM
Cc1ncc(-c2ccc(OCC(C)C)cn2)c(N2CCC3(CCCCC3)CC2)c1[C@H](OC(C)(C)C)C(=O)O,NL4-3,-,MT-2,-,17.6 µM
Cc1cc(Cl)c2ccccc2n1,UG070,-,TZM-bl,-,135 µM
Cc1ccc(-c2cc(-c3ccccc3)n(-c3ccccc3C)n2)c(=O)[nH]1,UG070,-,TZM-bl,-,>147 µM
CCC(F)(F)COc1ccc(-c2cnc(C)c([C@H](OC(C)(C)C)C(=O)O)c2N2CCC(C)(CC)CC2)nc1,NL4-3,-,MT-2,-,4.6 µM
COc1cccc2ccc(C(CC(=O)Nc3ccccc3)Nc3ccccc3)nc12,VB59,-,TZM-bl,-,>130 µM
C[C@@H]1CCO[C@H]2Cn3cc(C(=O)NCc4ccc(F)cc4F)c(=O)c(O)c3C(=O)N12,LAI,-,TZM-bl,-,0.00066 µM
Cc1ccc(-c2cc(-c3ccccc3)n(-c3ccc(C(F)(F)F)cc3)n2)c(=O)[nH]1,UG070,-,TZM-bl,-,89.16 µM
CC1(C)CC=C(c2cn(-c3nccc(C(=O)NC4CCC(N5CC6CCC(C5)O6)CC4)n3)c3ccc(F)c([C@H](OC(C)(C)C)C(=O)O)c23)CC1,NL4-3,-,MT-4,E92Q/N155H,0.0025 µM
COc1ccc(/C=C/c2cc(Cl)c3ccccc3n2)c(OC)c1,UG070,-,TZM-bl,-,3.99 µM
Cc1ncc(-c2ccc(OCC(C)C)cn2)c(N2CCC3(CC2)OCCO3)c1[C@H](OC(C)(C)C)C(=O)O,NL4-3,-,MT-2,-,23.4 µM
Cc1cc(C)cc(-n2nc(-c3ccc(C)[nH]c3=O)cc2-c2ccccc2)c1,UG070,-,TZM-bl,-,>563 µM
COc1cc(Br)ccc1/C=C/c1cc(Cl)c2ccccc2n1,UG070,-,TZM-bl,-,35.23 µM
Cc1ncc(-c2ccc(OCC3CCC(C)(C)CC3)cn2)c(N2CCC(C)(C)CC2)c1[C@H](OC(C)(C)C)C(=O)O,NL4-3,-,MT-2,-,0.0033 µM
Cc1ncc(-c2ccc(OCC(C)C)cn2)c(N2CCC3(CC2)CC3(F)F)c1[C@H](OC(C)(C)C)C(=O)O,NL4-3,-,MT-2,-,9.4 µM
COc1ccc(/C=C/c2cc(Cl)c3cc(Cl)ccc3n2)c(OC)c1,UG070,-,TZM-bl,-,1.11 µM
Cc1cn(C2CC(n3nnc(C4(C(F)(F)F)OC(=O)Nc5ccc(Cl)cc54)c3C3CC3)C(CO)O2)c(=O)[nH]c1=O,UG070,-,TZM-bl,-,1.22 µg/mL
Cc1cn([C@H]2C[C@H](N=[N+]=[N-])[C@@H](CO)O2)c(=O)[nH]c1=O,UG070,-,TZM-bl,-,0.01 µg/mL
C[C@H]1CN2C(=O)c3c(O)c(=O)c(C(=O)NCc4ccc(F)c(Cl)c4F)cn3[C@H]3CCC[C@]32O1,IIIB,-,MT-4,-,0.002703 µM
COc1cccc2ccc(-c3nnc(-c4cccc(F)c4)o3)nc12,VB59,-,TZM-bl,-,>150 µM
C/C=C(\C)COc1ccc(-c2cnc(C)c([C@H](OC(C)(C)C)C(=O)O)c2N2CCC(C)(C)CC2)nc1,NL4-3,-,MT-2,-,0.0061 µM
Cc1nc2ccccc2c(-c2cc(F)c3c(c2C)CCCO3)c1[C@H](OC(C)(C)C)C(=O)O,NL4-3,-,MT-4,E170G,0.068 µM
Cc1ccc(-c2cc(-c3ccccc3)n(-c3ccc(C)c(C)c3)n2)c(=O)[nH]1,VB59,-,TZM-bl,-,>563 µM
COc1cccc2ccc(-c3nnc(-c4ccc(C(C)(C)C)cc4)o3)nc12,UG070,-,TZM-bl,-,63.16 µM
Cc1nnc(-c2cccc(-c3cccc(C(=O)N4CCCCC4)c3)c2)o1,X1632,pseudotyped,TZM-bl,-,>30 µM
CN(CCc1ccccc1)Cc1ccc2c(c1)C[C@H](CN=C(N)N)[C@H]2NC(=O)C(=O)Nc1ccc(Cl)c(F)c1,JR-FL,-,Cf2Th-CD4/CCR5,-,32.2 µM
Cc1sc(-c2ccncc2)c(C2=CCC(C)(C)CC2)c1[C@H](OC(C)(C)C)C(=O)O,HXB2,-,MT-4,-,0.012 µM
COc1cccc(OCCOc2ccc(-c3cnc(C)c([C@H](OC(C)(C)C)C(=O)O)c3N3CCC(C)(C)CC3)nc2)c1,NL4-3,-,MT-2,-,0.0013 µM
O=C1NC(=O)c2cc([N+](=O)[O-])c(SCc3ccc(Cl)cc3)cc21,-,-,-,-,35 µM
Cc1ccc(-c2cc(-c3ccccc3)n(-c3ccccc3)n2)c(=O)[nH]1,UG070,-,TZM-bl,-,180 µM
Cc1cc(/C=C/C#N)cc(C)c1Nc1ccnc(Nc2ccc(C#N)cc2)n1,LAI,-,TZM-bl,3'-PPT mutations,0.00052 µM
Cc1ncc(-c2ccc(OCC(C)C)cn2)c(N2CCC3(CCCCCC3)C2)c1[C@H](OC(C)(C)C)C(=O)O,NL4-3,-,MT-2,-,43.2 µM
Cc1ncc(-c2ccc(O[C@@H](C)C3CCC3)nc2)c(N2CCC(C)(C)CC2)c1[C@H](OC(C)(C)C)C(=O)O,NL4-3,-,MT-2,-,0.007 µM
CC(Cc1nc(-c2ccc(O)c(O)c2)cs1)n1cc(Cl)cn1,-,-,-,-,110 µM
COc1cccc2ccc(/C=C/C(=O)Nc3ccc(Cl)cc3)nc12,UG070,-,TZM-bl,-,>130 µM

A second listing of 5 rows from above:

smiles	strain or isolate	conditions	cells	changes	value
COc1cccc2ccc(-c3nnc(-c4ccc5c(c4)OCO5)o3)nc12	UG070	-	TZM-bl	-	135 µM
CCC(F)(F)COc1ccc(-c2cnc(C)c([C@H](OC(C)(C)C)C(=O)O)c2N2CCC(C)(CC)CC2)nc1	NL4-3	-	MT-2	-	4.6 µM
Cc1ncc(-c2ccc(NCCOc3ccc(F)cc3)cn2)c(N2CCC(C)(C)CC2)c1[C@H](OC(C)(C)C)C(=O)O	NL4-3	-	MT-2	-	0.0016 µM
Cc1ncc(-c2ccc(OCC(C)C)cn2)c(N2CCC3(CCCC3)C2)c1[C@H](OC(C)(C)C)C(=O)O	NL4-3	-	MT-2	-	11.9 µM
Cc1ccc(-c2cc(-c3ccccc3)n(-c3ccccc3)n2)c(=O)[nH]1	UG070	-	TZM-bl	-	180 µM